US20070292908A1, “Method for Detecting Streptococcus Agalactiae Using Alpha-Glucosidase Activity” (BIOMERIEUX, priority 2004, published 2007)

System: Streptococcus agalactiae
Assay: Detection of Streptococcus agalactiae strains on reaction media containing an α-glucosidase enzymatic substrate
Format: cell-based
Set-up: key: T=turquoise; R=pink or red; Gr=green; Mg=magenta
Settings: substrate 0.1 g/l
Description: The reaction media were prepared by mixing heart-brain extract (4.84 g/l; Solabia), meat infusion (1.96 g/l; Solabia), biothione (1 g/l; Solabia), biotrypcase (7.2 g/l; Solabia), sodium carbonate (0.3 g/l; VWR), sodium pyruvate (2 g/l; Fluka), HEPES buffer (0.4 g/l; Sigma), lactalbumin peptone (2 g/l; DMV), glucose (1 g/l; Merck), American agar (2 g/l; Sobigel) and European agar (12 g/l; Roko).
The media were then poured into a Petri dish for subsequent inoculation with bacterial strains.
Eight Streptococcus agalactiae strains derived from the applicant's collection, suspended in physiological saline, were inoculated so as to give isolated colonies on each of the media. The dishes were then incubated at 37° C. for 48 hours. The colonies formed are examined visually after 18, 24 and more than 40 hours of incubation. The coloration of these colonies, the growth and also the intensity of this coloration were noted.
The results are given in table 1 below and are expressed: • in terms of growth (G) with the size being indicated in mm, • in terms of intensity (1) of coloration based on an arbitrary scale ranging from 0 to 4, 0 corresponding to an absence of activity and 4 corresponding to the presence of a very intense coloration, • in terms of color (Co) with T=turquoise, R=pink or red, Gr=green, Mg=magenta, • according to the incubation time in hours (T).

Measured: color (Co)

OC[C@H]1O[C@H](Oc2c[nH]c3cc(Br)ccc23)[C@H](O)[C@@H](O)[C@@H]1O [RedA-alpha-Glu, 6-bromo-3-indolyl-α-D-glucopyranoside]
R: strain 0008200, 18 h | strain 0008200, 24 h | strain 0008200, >40 h | strain 0008206, 18 h | strain 0008206, 24 h | strain 0008206, >40 h | strain 0101060, 18 h | strain 0101060, 24 h | strain 0101060, >40 h | strain 7611003, 18 h | strain 7611003, 24 h | strain 7611003, >40 h | strain 7701031, >40 h | strain 7702055, 24 h | strain 7702055, >40 h | strain 8709013, >40 h | strain 8904053, 24 h | strain 8904053, >40 h

OC[C@H]1O[C@H](Oc2c[nH]c3cc(Cl)ccc23)[C@H](O)[C@@H](O)[C@@H]1O [Rose-alpha-Glu, 6-chloro-3-indolyl-α-D-glucopyranoside]
R: strain 0008200, 18 h | strain 0008200, 24 h | strain 0008200, >40 h | strain 0008206, 18 h | strain 0008206, 24 h | strain 0008206, >40 h | strain 0101060, 18 h | strain 0101060, 24 h | strain 0101060, >40 h | strain 7611003, 18 h | strain 7611003, 24 h | strain 7611003, >40 h | strain 7701031, >40 h | strain 7702055, 18 h | strain 7702055, 24 h | strain 7702055, >40 h | strain 8709013, >40 h | strain 8904053, 18 h | strain 8904053, 24 h | strain 8904053, >40 h
